The values that follow come from US20080206834A1, “RECOMBINANT ORGANOPHOSPHOROUS ACID ANHYDRASE AND METHODS OF USE” (published 2008).

The target in this assay is recombinant OPA enzyme (Brevundimonas diminuta, UniProt P0A434). Nature of the assay: Kinetic constants for the hydrolysis of organophosphorus insecticides (substrate specificity). Particulars: pH 9, 100 mM CHES buffer, 10% methanol.

Each structure is given as a SMILES string.

In general, Km refers to the concentration of substrate that gives half-maximal velocity. In the case of `CCOP(=O)(OCC)Oc1ccc([N+](=O)[O-])cc1`, the Michaelis-Menten constant (Km) stood at 90 µM.
